Experimental data reported in PubChem BioAssay AID1259310 (The Scripps Research Institute Molecular Screening Center, 2017).
The entries are a selection whose mix differs from that of the whole data set. Calls of active or inactive are those of the source. No stated cut-off is given here; in the data, active means normalized activity above about 1.9%; inactive means the rest.

By UniProt entry, the sequences of proteins in these tests, tags left out.
UniProt Q969H0, whole entry, looked up: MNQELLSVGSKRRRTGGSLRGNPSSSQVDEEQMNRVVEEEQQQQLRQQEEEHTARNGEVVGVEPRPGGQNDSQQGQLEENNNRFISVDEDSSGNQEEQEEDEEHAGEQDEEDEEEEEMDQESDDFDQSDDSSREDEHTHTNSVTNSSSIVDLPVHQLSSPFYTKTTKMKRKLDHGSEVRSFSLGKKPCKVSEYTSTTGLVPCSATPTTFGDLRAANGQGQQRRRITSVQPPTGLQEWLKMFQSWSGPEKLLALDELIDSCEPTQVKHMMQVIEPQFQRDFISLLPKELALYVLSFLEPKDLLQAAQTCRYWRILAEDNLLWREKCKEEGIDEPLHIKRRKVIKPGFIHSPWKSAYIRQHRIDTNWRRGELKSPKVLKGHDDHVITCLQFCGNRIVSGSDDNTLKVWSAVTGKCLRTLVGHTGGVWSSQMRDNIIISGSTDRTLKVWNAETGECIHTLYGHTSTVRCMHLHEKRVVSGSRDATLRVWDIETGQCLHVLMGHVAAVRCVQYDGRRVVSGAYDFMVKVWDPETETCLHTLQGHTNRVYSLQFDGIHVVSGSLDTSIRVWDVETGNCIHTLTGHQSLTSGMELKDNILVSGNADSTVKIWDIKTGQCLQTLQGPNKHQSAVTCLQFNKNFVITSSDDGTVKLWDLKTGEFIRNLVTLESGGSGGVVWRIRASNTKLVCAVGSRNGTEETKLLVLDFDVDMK

What follows are molecules tested against F-box/WD repeat-containing protein 7 (Homo sapiens) (UniProt Q969H0) (assay: FBW7 E3 ligase activators, primary screen, biochemical, AlphaScreen, human (AID 1259310;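 further: purified mutant Fbw7 with reduced substrate affinity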)). Conditions: AlphaScreen FBW7–phospho-cyclin E peptide binding, activator screen; at 26.1 µM; stronger effect = higher value.

Row | SMILES | normalized activity (activation)
1 | O=C(O)Cc1ccc(N(CCCl)CCCl)cc1 | inactive: -0.43%
